Test results reported in patent publication US20220362276A1, “Small Molecule Inhibitors of Viral Replication” (The Trustees of Princeton University, priority 2019, published 2022).

System: p6/Gluc[Y1320H]
Assay: Dose titration against mutant replicon p6/Gluc[Y1320H]

## COc1cc(O)cc(O)c1C(=O)c1ccccc1 [isocotoin, 4-benzoyl-5-methoxybenzene-1,3-diol]
  sensitivity of p6/Gluc[Y1320H], in words: higher sensitivity to isocotoin than to ribavirin
